This passage reports CC50 results from ChEMBL document CHEMBL2417542 (Bioorg Med Chem Lett, 2013).

The data set concerns MT2. Nature of the data set: Cytotoxicity against human MT2 cells assessed as growth inhibition. The format is cell-based.

The term CC50 denotes the concentration that lowers cell viability or growth by half.

`Cc1cc(C)c(Nc2cc(OCCCN3CCOCC3)nc(Nc3ccc(C#N)cc3)n2)c(C)c1`: the cytotoxic concentration (CC50) came out at 3.1 µM.

For the compound `Cc1cc(C)c(Nc2nc(Nc3ccc(C#N)cc3)nc(OCCN3CCOCC3)n2)c(C)c1`, the CC50 amounted to 95 µM.

Consider `Cc1cc(/C=C/C#N)cc(C)c1Nc1nc(Nc2ccc(C#N)cc2)nc(OCCCN2CCOCC2)n1`, for which the CC50 worked out at 4.5 µM.

For `CCc1cc(F)c(Nc2nc(Nc3ccc(C#N)cc3)nc(OCCCN3CCOCC3)n2)c(F)c1`, the CC50 is 13 µM.

Take `CC(C)c1cc(F)c(Nc2nc(Nc3ccc(C#N)cc3)nc(OCCCN3CCOCC3)n2)c(F)c1`: the CC50 was determined as 1.5 µM.

As for `N#Cc1ccc(Nc2nc(Nc3c(F)cc(C4CC4)cc3F)nc(OCCCN3CCOCC3)n2)cc1`, the CC50 came out at 2.2 µM.

For the compound `Cc1cc(C)c(Nc2nc(Nc3ccc(C#N)cc3)nc(OCCC3CCNCC3)n2)c(C)c1`, the CC50 came to 4.2 µM.
